Measured data: PubChem BioAssay AID504761 (Drosophila RNAi Screening Center, 2011)
In all, the deposit lists about 22,000 reagents; shown is an unselected part of those with a known target gene and a result. Over the whole deposit, 116 (0.52%) were called active. 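Calls depend on retest data that are not deposited; infection was ranked per plate without normalising between plates; the unit of the infection score is not given.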 Raw values are not corrected between plates. Reagent sequences are not shown. The record does not give: the amount of reagent, the time to read-out.

- Purpose: 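Genome-wide fly cell screen for genes dengue virus requires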 (primary screen)
- Cell system: D.Mel-2 cells from Drosophila
- Knock-down reagent: long dsRNA against Drosophila genes
- Treatment: infection with dengue virus type 2; dose and infection time not stated
- Measured: 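Per well on two replicate plates, imaging gave the percent of cells positive for viral envelope protein, ranked by infection, and a nuclear count of cells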
- Direction: infection score: higher = more virus-infected cells; cell count: higher = more cells in the well
- Call rule: 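Very low infection ranking in both replicate wells (chance probability at most 0.065), then a retest showing infection dropped 1.5-fold or more at p below 0.05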
- Meaning of the calls: active = confirmed: knock-down lowers infection; inactive = not picked or not confirmed

Gene | dsRNA | infection score, replicate 1 | infection score, replicate 2 | cell count, replicate 1 | cell count, replicate 2 | call
CG9368 | DRSC11067 | 5.92 | 9.19 | 6287 | 6376 | inactive
CG9368 | DRSC24280 | 12.1 | 5.7 | 6125 | 6649 | inactive
yps (ypsilon schachtel) | DRSC25035 | 3.13 | 3.57 | 6043 | 5879 | inactive
pdm2 (POU domain protein 2) | DRSC02496 | 8.65 | 8.02 | 5087 | 5314 | inactive
pdm2 (POU domain protein 2) | DRSC03587 | – | 5.22 | 652 | 6151 | inactive
CG32797 | DRSC25152 | 13.1 | 2.82 | 6331 | 5884 | inactive
CG8539 | DRSC10988 | 10.6 | 0.54 | 6698 | 6677 | inactive
CG8539 | DRSC21798 | 8.17 | 6.95 | 6673 | 6708 | inactive
CG8539 | DRSC28192 | 18.4 | 5.66 | 5586 | 7011 | inactive
Hand | DRSC02656 | 6.7 | 2.68 | 5521 | 6573 | inactive
CG7646 | DRSC11232 | 4.43 | 6.61 | 6323 | 6185 | inactive
CarT (Carcinine transporter) | DRSC03196 | 27.6 | 36.2 | 6675 | 6060 | inactive
CarT (Carcinine transporter) | DRSC27070 | 4.71 | 15.1 | 6099 | 6598 | inactive
Tsf3 (Transferrin 3) | DRSC06849 | 9.19 | 12.8 | 6483 | 6235 | inactive
Pgant5 (Polypeptide N-Acetylgalactosaminyltransferase 5) | DRSC03149 | 3.54 | 2.12 | 5683 | 6171 | inactive
REPTOR-BP (REPTOR-binding partner) | DRSC02683 | 2.02 | 11.1 | 6644 | 6792 | inactive
T48 (Transcript 48) | DRSC16878 | 0.9 | 1.45 | 6198 | 6134 | inactive
CG14659 | DRSC12245 | 5.52 | 8.08 | 6757 | 6806 | inactive
CG11836 | DRSC14396 | 3.93 | 6.04 | 6256 | 6462 | inactive
RhoGAP71E (Rho GTPase activating protein at 71E) | DRSC10232 | 10.2 | 11.4 | 5749 | 4378 | inactive
RhoGAP71E (Rho GTPase activating protein at 71E) | DRSC10838 | 3.64 | 7.73 | 5799 | 5873 | inactive
RhoGAP71E (Rho GTPase activating protein at 71E) | DRSC29082 | 21.8 | 16.7 | 5943 | 5866 | inactive
chm (chameau) | DRSC03341 | 3.11 | 6 | 6165 | 5749 | inactive
chm (chameau) | DRSC24941 | 8.35 | 13.2 | 5870 | 4632 | inactive
CG12012 | DRSC08220 | 1.04 | 4.03 | 5986 | 5932 | inactive
CG34347 | DRSC14305 | 2.69 | 3.57 | 782 | 6722 | inactive
CG34347 | DRSC23044 | 1.2 | 20.9 | 5567 | 3088 | inactive
CG34347 | DRSC24430 | 1.55 | 1.52 | 6373 | 6497 | inactive
wdn (wings down) | DRSC17095 | 1.9 | 1.76 | 6276 | 7197 | inactive
wdn (wings down) | DRSC29088 | 25.1 | 13.5 | 3555 | 5900 | inactive
BomS6 (Bomanin Short 6) | DRSC21676 | 1.95 | 4.93 | 6511 | 6719 | inactive
BomS6 (Bomanin Short 6) | DRSC26792 | 0.33 | 15.3 | 1498 | 6564 | inactive
Crag | DRSC18454 | 3.02 | 2.27 | 6217 | 5724 | inactive
l(3)psg2 (lethal (3) persistent salivary gland 2) | DRSC10484 | 4.22 | 8.35 | 6067 | 6036 | inactive
l(3)psg2 (lethal (3) persistent salivary gland 2) | DRSC24075 | 7.86 | 3.31 | 5799 | 6009 | inactive
Cpr67B (Cuticular protein 67B) | DRSC10373 | 4.88 | 4.54 | 6080 | 6252 | inactive
sgll (sugarlethal) | DRSC15442 | 24.8 | 19.1 | 4228 | 3252 | inactive
Trf (TBP-related factor) | DRSC03462 | 9.48 | 6.28 | 3883 | 5732 | inactive
CG1636 | DRSC18111 | 7.64 | 2.58 | 6190 | 6398 | inactive
CG11279 | DRSC09837 | 2.46 | 2.87 | 6311 | 6234 | inactive
CG42232 | DRSC15018 | 42.1 | 33.8 | 4225 | 4994 | inactive
CG42232 | DRSC15019 | 17.1 | 12.6 | 5550 | 5756 | inactive
CG42232 | DRSC29868 | 13 | 22.1 | 5944 | 1667 | inactive
CG6204 | DRSC15991 | 8.04 | 1.4 | 6219 | 6509 | inactive
RpL13A (Ribosomal protein L13A) | DRSC12265 | 3.44 | 2.49 | 1423 | 1525 | inactive
RpL13A (Ribosomal protein L13A) | DRSC27297 | 15.5 | 8.86 | 1873 | 1761 | inactive
ssx | DRSC18492 | 3.79 | 3.82 | 5547 | 5936 | inactive
ssx | DRSC23454 | 3.47 | 2.22 | 6225 | 6268 | inactive
GstD2 (Glutathione S transferase D2) | DRSC16684 | 2.28 | 13.2 | 6845 | 4245 | inactive
GstD2 (Glutathione S transferase D2) | DRSC27903 | 28.7 | 30.2 | 5520 | 5545 | inactive
CG2061 | DRSC19348 | 8.67 | 1.86 | 6203 | 6167 | inactive
tei (teiresias) | DRSC07616 | 16.8 | 7.08 | 6253 | 6257 | inactive
tei (teiresias) | DRSC23756 | 4.78 | 0.4 | 5986 | 6059 | inactive
Fatp3 (Fatty acid transport protein 3) | DRSC04366 | 1.21 | 3.95 | 6107 | 6298 | inactive
Fatp3 (Fatty acid transport protein 3) | DRSC29135 | – | – | 350 | 291 | inactive
CG31862 | DRSC01245 | 3.69 | 1.11 | 6279 | 6334 | inactive
O-fut1 (O-fucosyltransferase 1) | DRSC06138 | 5.21 | 6.8 | 5952 | 6586 | inactive
O-fut1 (O-fucosyltransferase 1) | DRSC26476 | 4.89 | 1.33 | 5812 | 5705 | inactive
CG34408 | DRSC17733 | 5.8 | 3.29 | 6764 | 6875 | inactive
CG34408 | DRSC23056 | 0.32 | 1.76 | 6529 | 6708 | inactive
CG34408 | DRSC27286 | 21 | 7.01 | 6254 | 6762 | inactive
CG34408 | DRSC28674 | 0.3 | 0.73 | 330 | 547 | inactive
salt (salty dog) | DRSC15427 | 1.17 | 1.55 | 6079 | 6143 | inactive
salt (salty dog) | DRSC25514 | 5.04 | 2.75 | 6129 | 6186 | inactive
Ak1 (Adenylate kinase 1) | DRSC10248 | 2.36 | 1.49 | 6356 | 6568 | inactive
Ak1 (Adenylate kinase 1) | DRSC29837 | 1.16 | 12.8 | 6575 | 6296 | inactive
Jon25Bii (Jonah 25Bii) | DRSC03114 | 2.61 | 28.3 | 5549 | 5585 | inactive
Jon25Bii (Jonah 25Bii) | DRSC29193 | 12.6 | 22 | 2845 | 5761 | inactive
CG15894 | DRSC18098 | 2.06 | 2.31 | 6112 | 6439 | inactive
RunxA (Runt related A) | DRSC20498 | 2.99 | – | 4014 | – | inactive
RunxA (Runt related A) | DRSC20524 | 11.4 | 27.5 | 507 | 4439 | inactive
RunxA (Runt related A) | DRSC21915 | 6.8 | 15 | 5868 | 5504 | inactive
RunxA (Runt related A) | DRSC25225 | 1.65 | 0.99 | 5985 | 6290 | inactive
RunxA (Runt related A) | DRSC27250 | 15.6 | 11.8 | 6689 | 6317 | inactive

9 entries already listed, ordered by “infection score, replicate 1”, ascending:
Gene | dsRNA | infection score, replicate 1 | infection score, replicate 2 | cell count, replicate 1 | cell count, replicate 2 | call
BomS6 (Bomanin Short 6) | DRSC26792 | 0.33 | 15.3 | 1498 | 6564 | inactive
CG12012 | DRSC08220 | 1.04 | 4.03 | 5986 | 5932 | inactive
CG34347 | DRSC23044 | 1.2 | 20.9 | 5567 | 3088 | inactive
CG34347 | DRSC24430 | 1.55 | 1.52 | 6373 | 6497 | inactive
wdn (wings down) | DRSC17095 | 1.9 | 1.76 | 6276 | 7197 | inactive
BomS6 (Bomanin Short 6) | DRSC21676 | 1.95 | 4.93 | 6511 | 6719 | inactive
CG34347 | DRSC14305 | 2.69 | 3.57 | 782 | 6722 | inactive
chm (chameau) | DRSC24941 | 8.35 | 13.2 | 5870 | 4632 | inactive
wdn (wings down) | DRSC29088 | 25.1 | 13.5 | 3555 | 5900 | inactive
